Only a part is listed here, and it is no random draw. Active and inactive are the calls of the source. Calls come from the whole dose curve; as a rule, active = well fitted falling curve with a large enough effect; inconclusive = small, poorly fitted or top-dose-only effect; inactive = no such curve, though single readings can be large or run the other way.

Experimental findings from PubChem BioAssay AID651644 (National Center for Advancing Translational Sciences (NCATS), 2012) are described below.
% is set by controls: 0 for no effect and ±100 for the full control effect.

This assay is described as follows: qHTS Assay for Inhibitors of the HIV-1 protein Vpr. Note: nearly all actives have a fitted effect of over 50% in size. The following applies: S. pombe RE007 Vpr strain, BacTiter-Glo ATP luminescence, 24 h; at 92.2 µM (top of the series) unless noted.
Turning to `COC(=O)C1(C)COP(=O)(Nc2ccccc2)OC1` (configuration not stated), the activity change, negative = less growth is inactive: -13.4%.
The same measure for `O=[N+]([O-])c1cccc(NC2=NCC(CBr)S2)c1` (configuration not stated): inactive: 9.79%.
Consider `O=C(O)CNc1ccc([As](=O)(O)O)cc1`, for which the activity change, negative = less growth is inactive: 3.28%.
Turning to `CC(C)(C)C(=O)NC(Sc1ccncn1)C(Cl)(Cl)Cl` (configuration not stated), the activity change, negative = less growth is inactive: -21.3%.
Take `O=[N+]([O-])c1ncn(CCn2ncnc2[N+](=O)[O-])n1`: the activity change, negative = less growth was inactive: 7.07%.
As to `O=C(Nc1cc([As](=O)(O)O)ccc1O)c1ccccc1`, the activity change, negative = less growth was inactive: 10.6%.
`CCOC(=O)c1ccc(NP(C)(=O)Oc2ccc(Cl)cc2)cc1` (configuration not stated): the activity change, negative = less growth was inactive: -22.5%.
For the compound `CP(=O)(OC12CC3CC(CC(C3)C1)C2)OC12CC3CC(CC(C3)C1)C2`, the activity change, negative = less growth was inactive: 1.77%.
For the compound `Nc1ccc2c(ccc3cccnc32)n1.O=[N+]([O-])c1cc([N+](=O)[O-])c(O)c([N+](=O)[O-])c1`, the activity change, negative = less growth was inactive: 5.74%.
Regarding `O=P1(N(CCCl)CCCl)OCCCS1` (configuration not stated), the activity change, negative = less growth is inactive: -4.61%.
As to `CN(C)C(=O)OCCc1n(C)cc[n+]1C`, the activity change, negative = less growth was inactive: -4.18%.
Turning to `CC(C)c1nc(Nc2ccccc2)n(P(=O)(N(C)C)N(C)C)n1`, the activity change, negative = less growth is inactive: -10.2%.
Regarding `CC(C)=N/N=C(\N)N[N+](=O)[O-]`, the activity change, negative = less growth was inactive: 3.13%.
Consider `CN(C)C(=O)c1c([N+](=O)[O-])cc([N+](=O)[O-])cc1[N+](=O)[O-]`, for which the activity change, negative = less growth is inactive: -26.1%.
Consider `CC1CCN(C(=O)Oc2c(Cl)cc(Cl)c3cccnc23)CC1`, for which the activity change, negative = less growth was inactive: -4.56%.
Consider `c1cc(-c2nn[nH]n2)ccc1-c1nn[nH]n1`, for which the activity change, negative = less growth was inactive: -13.7%.
For the compound `C[N+]1=C2C=CC=CC=C2SC12C([N+](=O)[O-])=CC([N+](=O)[O-])=C[C-]2[N+](=O)[O-]` (configuration not stated), the activity change, negative = less growth is inactive: -29.3%.
As for `COc1ccccc1OP(C)(=O)Nc1ccccc1Br` (configuration not stated), the activity change, negative = less growth is inactive: 18.5%.
Under `Nc1ccc([As](=O)(O)c2ccc(N)cc2)cc1` stands inactive: 14%.
Take `CC(C)(C)c1ccc(OP(C)(=O)O)cc1`: the activity change, negative = less growth is inactive: 8.62%.
Under `CP(=O)(Nc1ccc(Cl)cc1)Oc1ccc(F)cc1` (configuration not stated) stands inactive: 8.91%; under `CCN(/C(=N/P(=O)(N1CCOCC1)N1CCOCC1)N1CCOCC1)c1ccc(OC)cc1`, inactive: -8.49%.
For `O=C(OCCCN1CCCC1)C(O)(c1ccccc1)C1CCCCC1` (configuration not stated), the activity change, negative = less growth was inactive: -1.58%.
Under `CC(=O)N1C2C3N(C(C)=O)C1C1N(C(C)=O)C(C(N1C(C)=O)N3C(C)=O)N2C(C)=O` stands inactive: 4.88%.
For `O=[N+]([O-])c1cccc2n[nH]nc12`, the activity change, negative = less growth is inactive: 10.1%.
As to `COc1ccccc1OP(C)(=O)Nc1c(C)n(C)n(-c2ccccc2)c1=O` (configuration not stated), the activity change, negative = less growth is inactive: -9.94%.
The same measure for `CCc1ccc(OP(C)(=O)Nc2cccnc2)cc1` (configuration not stated): inactive: -5.83%; for `CCc1nc2c(n1)c1c(non1O)c1c2no[n+]1[O-]`: inactive: -24.6%.
In the case of `CP(=O)(Oc1ccccc1)N1CCOC1=O` (configuration not stated), the activity change, negative = less growth is inactive: 6.8%.
The same measure for `Cc1ccc(NP(=O)(Oc2ccccc2)Oc2ccccc2)nc1`: inactive: -2.64%; for `COc1ccc(OP(C)(=O)Nc2ccc(Br)cc2)cc1` (configuration not stated): inactive: 21.6%.
As to `COc1ccc(C2=NCC(CBr)S2)cc1` (configuration not stated), the activity change, negative = less growth was inactive: -3.51%.
With `CCN(CC)CC(O)COC(=O)C(O)(c1ccccc1)C1CCCCC1` (configuration not stated), the activity change, negative = less growth is inactive: -2.48%.
Take `COc1ccccc1OP(C)(=O)Nc1ccc(C)cc1C` (configuration not stated): the activity change, negative = less growth is inactive: 31.5%.
Under `CP(=O)(Nc1ccccn1)Oc1ccccc1` (configuration not stated) stands inactive: 21.3%; under `O=[N+]([O-])C1C(O)C(O)C([N+](=O)[O-])C(O)C1O` (configuration not stated), inactive: 0.478%; under `CCc1ccc(OP(C)(=O)O)cc1`, inactive: -0.909%.
With `Nc1cc(N)c2nonc2c1[N+](=O)[O-]`, the activity change, negative = less growth was inactive: -0.616%.
The same measure for `Cc1c(NP(C)(=O)Oc2ccc(C(C)C)cc2)c(=O)n(-c2ccccc2)n1C` (configuration not stated): inactive: 2.44%.
The same measure for `CC(C)CC(=O)NC(Sc1ccc(Cl)cc1)C(Cl)(Cl)Cl` (configuration not stated): inactive: -2.23%; for `O=C(NC(Sc1ccncn1)C(Cl)(Cl)Cl)c1ccccc1` (configuration not stated): inactive: -12.5%; for `Oc1ccccc1CNc1ccccn1`: inactive: 3.46%.
With `Cc1ccc(OP(=O)(Nc2nccs2)Oc2ccc(C)cc2)cc1`, the activity change, negative = less growth is inactive: 7.27%.
For the compound `COc1ccccc1OP(=O)(Nc1ccc(C)cn1)Oc1ccccc1OC`, the activity change, negative = less growth was inactive: 8.92%.
On to `COc1ccc(OP(C)(=O)Nc2ccccn2)cc1` (configuration not stated), for which the activity change, negative = less growth is inactive: -6.5%.
Turning to `CN1CCCC(OC(=O)C(c2ccccc2)c2ccccc2)C1` (configuration not stated), the activity change, negative = less growth was inactive: -5.44%.
`CN(C)CCOC(=O)C(O)(c1ccccc1)C1CCCC1` (configuration not stated): the activity change, negative = less growth was inactive: 1.9%.
`Clc1ccc(Cl)c(NC2=NCC(CBr)S2)c1` (configuration not stated): the activity change, negative = less growth was inactive: 1.02%.
The same measure for `NC(=O)c1cc([N+](=O)[O-])cc([N+](=O)[O-])c1N`: inactive: -4.67%; for `Cc1ccc(N/C(=N/P(=O)(N2CCOCC2)N2CCOCC2)N2CCOCC2)cc1`: inactive: -13.7%.
As to `COc1ccccc1OP(C)(=O)Nc1ccc(Br)cc1` (configuration not stated), the activity change, negative = less growth is inactive: -25%.
On to `CCN(N=Nc1nonc1N)c1nonc1N`, for which the activity change, negative = less growth is inactive: 7.73%.
With `CP(=O)(Nc1ccc(Cl)cc1Cl)Oc1ccccc1` (configuration not stated), the activity change, negative = less growth is inactive: 10.8%.
Under `CP(=O)(OCCOc1ccccc1)OCCOc1ccccc1` stands inactive: -12.3%; under `COc1ccccc1OP(C)(=O)Nc1ccc(C)c(C)c1` (configuration not stated), inactive: -6.9%.
`Cc1ccc(NP(=O)(Oc2ccccc2F)Oc2ccccc2F)nc1`: the activity change, negative = less growth was inactive: 6.62%.
On to `Cc1cc(SC(NC(=O)c2ccc(F)cc2)C(Cl)(Cl)Cl)ncn1` (configuration not stated), for which the activity change, negative = less growth is inactive: -6.76%.
For the compound `CCOP(=O)(Nc1ccccc1)OCC`, the activity change, negative = less growth is inactive: -15.7%.
Under `COc1ccc(OP(C)(=O)Nc2ccccc2Br)cc1` (configuration not stated) stands inactive: -5.1%.
Take `CCCC1OP(N)(=O)OCC1CC` (configuration not stated): the activity change, negative = less growth was inactive: -13%.
For `CC(=O)Nc1ccc([As](=O)(O)O)cc1`, the activity change, negative = less growth was inactive: 0.993%.
Consider `O=C(O)c1ccccc1[As](=O)(O)O`, for which the activity change, negative = less growth was inactive: -3.61%.
Under `O=P(Nc1nc2ccc(Cl)cc2s1)(c1ccccc1)c1ccccc1` stands inactive: -1.24%; under `CN(C)P(=O)(N(C)C)n1c(Nc2ccccc2)nnc1-c1ccccc1`, inactive: -24.8%.
With `Cc1cc(C)cc(OP(C)(=O)Nc2cccc(C(F)(F)F)c2)c1` (configuration not stated), the activity change, negative = less growth was inactive: -2.08%.
For `CP(=O)(Nc1ccccc1)Oc1ccc(F)cc1` (configuration not stated), the activity change, negative = less growth was inactive: 10%.
With `CN(C)C(=O)Oc1noc2ccccc12`, the activity change, negative = less growth is inactive: -5%.
With `CC(NC(=O)COC(=O)C(O)(c1ccccc1)c1ccccc1)c1ccccc1` (configuration not stated), the activity change, negative = less growth was inactive: -1.98%.
Take `Cc1ccccc1OP(=O)(Nc1ccccn1)Oc1ccccc1C`: the activity change, negative = less growth is inactive: 12%.
On to `CC(=O)NC(SC(=S)N(CC(C)C)CC(C)C)C(Cl)(Cl)Cl` (configuration not stated), for which the activity change, negative = less growth is inactive: 20.2%.
With `Cc1ccc(OP(=O)(Nc2ccccn2)Oc2ccc(C)cc2)cc1`, the activity change, negative = less growth was inactive: -8.92%.
Under `COC(=O)c1cc2c(s1)N=C(c1ccccc1)N(C)P2(=O)N1CCOCC1` (configuration not stated) stands inactive: -3.6%; under `Cc1c([N+](=O)[O-])cc([N+](=O)[O-])c(Br)c1[N+](=O)[O-]`, inactive: -0.464%; under `CCC(=O)N1C2C3N(C(=O)CC)C1C1N(C(=O)CC)C(C(N1C(=O)CC)N3C(=O)CC)N2C(=O)CC`, inactive: 5.08%.
Consider `CCN(CC)CCCOC(=O)C(O)(c1ccccc1)C1CCCCC1` (configuration not stated), for which the activity change, negative = less growth was inactive: -5.16%.
With `O=C(OC1CN2CCC1CC2)c1ccccc1` (configuration not stated), the activity change, negative = less growth was inactive: 9.33%.
Turning to `CCOC(=O)c1ccc(NP(C)(=O)Oc2ccc(F)cc2)cc1` (configuration not stated), the activity change, negative = less growth is inactive: -1.72%.
In the case of `O=P1(N(CCCl)CCCl)OCCC2CCCCN21` (configuration not stated), the activity change, negative = less growth is inactive: 16.3%.
`COc1ccc(OP(C)(=O)Nc2ccc(SC(F)(F)F)cc2)cc1` (configuration not stated): the activity change, negative = less growth is inactive: 0.439%.
Take `O=C(NC1CCS(=O)(=O)C1)NP(=S)(Oc1ccccc1)Oc1ccccc1` (configuration not stated): the activity change, negative = less growth was inactive: -8.38%.
Consider `CCNC(=S)/N=C(\N)N[N+](=O)[O-]`, for which the activity change, negative = less growth is inactive: 3.33%.
For `Cc1ccc(NP(=O)(Oc2cccc(C)c2)Oc2cccc(C)c2)nc1`, the activity change, negative = less growth is inactive: 0.08%.
`c1ccc(-c2nn[nH]n2)c(-c2nn[nH]n2)c1`: the activity change, negative = less growth was inactive: 4.91%.
Under `CC(=O)Nc1ccc(Oc2c([N+](=O)[O-])cc([N+](=O)[O-])cc2[N+](=O)[O-])cc1` stands inactive: 0.663%; under `CC(=O)Nc1ccc([As](=O)(O)O)c(O)c1`, inactive: -11.9%; under `COC(=O)C1(C)COP(=O)(NCc2ccccc2)OC1` (configuration not stated), inactive: -14.1%.
Turning to `CC(=O)c1ccc(N2CC2c2ccncc2)cc1` (configuration not stated), the activity change, negative = less growth was inactive: 5.65%.
Under `N#C/C(=C\c1ccc(N(CCBr)CCBr)cc1)C(N)=O` stands inactive: -22.4%.
With `C[C@H]1OP(=O)(Oc2ccccc2)C[C@@H]2O[C@@H]21` (some centres not stated), the activity change, negative = less growth is inactive: 4.36%.
For the compound `C[C@@H]1C=CCP(=O)(Oc2ccccc2)O1` (some centres not stated), the activity change, negative = less growth was inactive: 2.78%.
As to `O=C(OCCN1CCN(CCOCc2ccccc2)CC1)C(O)(c1ccccc1)c1ccccc1`, the activity change, negative = less growth is inactive: -14.8%.
Regarding `Cc1ccccc1CN(C)C(=O)COC(=O)C(O)(c1ccccc1)c1ccccc1`, the activity change, negative = less growth is inactive: 30.4%.
`CP(=O)(Nc1ccccc1F)Oc1ccccc1` (configuration not stated): the activity change, negative = less growth is inactive: -8.61%.
The same measure for `CCc1cc(O)c([N+](=O)[O-])c(C)c1[N+](=O)[O-]`: inactive: -21.9%; for `CC(C)c1ccc(OP(C)(=O)Nc2ccc(SC(F)(F)F)cc2)cc1` (configuration not stated): inactive: 0.0566%.
`CC(C)(C)C(=O)NC(Sc1ccccc1)C(Cl)(Cl)Cl` (configuration not stated): the activity change, negative = less growth was inactive: 4.69%.
Under `CCOc1ccc(C2=NCC(CBr)S2)cc1` (configuration not stated) stands inactive: -0.629%.
For the compound `Cc1ccccc1NP(C)(=O)Nc1ccccc1C`, the activity change, negative = less growth was inactive: 19.1%.
With `O=[N+]([O-])c1cc([N+](=O)[O-])c(C(F)(F)F)c([N+](=O)[O-])c1O`, the activity change, negative = less growth was inactive: 0.408%.
As to `CP(=O)(Nc1ccc2c(c1)OCCO2)Oc1ccccc1` (configuration not stated), the activity change, negative = less growth was inactive: 0.117%.
As for `CCOP(C)(=S)SCC(=O)NC(C)(CC)C(=O)O` (configuration not stated), the activity change, negative = less growth was inactive: 11.4%.
The same measure for `c1nnnn1CCn1cnnn1`: inactive: 7.55%.
